Measured values from several laboratories, pooled; numbers as filed in NIAID ChemDB.

All rows: tests on isolated targets; agent: HIV-1; target: Integrase; endpoint: inhibition

Rows are shuffled and stem from different studies. Inhibition is in % at the dose shown (toxicity tests: loss of growth or viability). An empty or dashed field is not shown.

smiles | read by | dose | value
COC(=O)/C(=C/c1cc(Cl)ccc1OCc1ccccc1)CNCc1cn([C@H]2C[C@H](n3cc(C)c(=O)[nH]c3=O)O[C@@H]2CO)nn1 |  | 10 µM | 9%
O=C(/C=C(\O)C(=O)O)NCc1ccc([N+](=O)[O-])cc1 | strand transfer | 70 µM | 80%
COC(=O)c1cc(O)c(O)c(O)c1 | 3′ processing | 500 µM | 62%
COc1ccc(/C=C/c2ccc3c(Cl)cc(NS(=O)(=O)c4ccccc4)c(O)c3n2)cc1 | strand transfer | 0.05 µM | 60.3%
COc1cccc2cc(CNC3CCCCC3)c(=O)[nH]c12 | strand transfer / absorbance | 20 µM | 36.1%
C#CCNC/C(=C\c1cc(Br)ccc1OCc1ccccc1)C(=O)OC |  | 10 µM | 72.9%
O=C(/C=C/c1ccc(O)c(O)c1)NCC(NC(=O)/C=C/c1ccc(O)c(O)c1)C(=O)O | 3′ processing | 10 µM | 100%
COc1cccc2cc(CN(C(=O)c3ccccc3)C3CC3)c(=O)[nH]c12 | strand transfer / absorbance | 20 µM | -17%
Cc1ccc(S(=O)(=O)Nc2cc(Cl)c3ccc(/C=C/c4ccc(O)cc4)nc3c2O)cc1 | strand transfer | 0.05 µM | 100.6%
CCCCOC(=O)C(CNCc1cn([C@H]2C[C@H](n3cc(C)c(=O)[nH]c3=O)O[C@@H]2CO)nn1)C(O)c1cccc(OC)c1O |  | 10 µM | 21.6%
O=C(NC(CNC(=O)c1ccc(O)c(O)c1O)C(=O)O)c1cc(O)c(O)c(O)c1 | 3′ processing | 10 µM | 100%
COc1ccc2[nH]c(=O)c(CN(C(=O)c3ccccc3)C3CC3)cc2c1 | strand transfer / absorbance | 20 µM | 40.2%
COc1cccc(CNC(=O)/C=C(\O)C(=O)O)c1 | strand transfer | 70 µM | 65%
CCCCOC(=O)C(CNCc1cn([C@H]2C[C@H](n3cc(C)c(=O)[nH]c3=O)O[C@@H]2CO)nn1)C(O)c1cc(Br)ccc1O |  | 10 µM | 57.8%
O=C(/C=C(\O)C(=O)O)NCc1ccc(Cl)cc1 | strand transfer | 70 µM | 80%
C#CCNCC(C(=O)OCCCC)C(O)c1cc(Br)ccc1O |  | 10 µM | 16.1%
Cc1ccc(S(=O)(=O)Nc2cc(Cl)c3ccc(/C=C/c4ccccc4)nc3c2O)cc1 | strand transfer | 0.05 µM | 82%
COC(=O)C(CCCNC(=O)/C=C/c1ccc(O)c(O)c1)NC(=O)/C=C/c1ccc(O)c(O)c1 | 3′ processing | 10 µM | 99%
C#CCNCC(C(=O)OCCCC)C(O)c1cccc(OCC)c1O |  | 10 µM | 36.8%
COC(=O)C(CCNC(=O)/C=C/c1cc(O)c(O)c(O)c1)NC(=O)/C=C/c1cc(O)c(O)c(O)c1 | 3′ processing | 10 µM | 100%
COc1ccc2[nH]c(=O)c(CN(C(=O)c3ccccc3)C3CCCCC3)cc2c1 | strand transfer / absorbance | 20 µM | 38.4%
Cc1ccc(CNC(=O)/C=C(\O)C(=O)O)cc1 | strand transfer | 70 µM | 80%
O=S(=O)(Nc1cc(Cl)c2ccc(/C=C/c3ccc(Br)cc3)nc2c1O)c1ccc(Cl)cc1 | strand transfer | 0.05 µM | 67.8%
O=C(NCC(NC(=O)c1ccc(O)c(O)c1)C(=O)O)c1ccc(O)c(O)c1 | 3′ processing | 10 µM | 2%
O=c1[nH]c2ccccc2cc1CNC1CC1 | strand transfer / absorbance | 20 µM | 38.6%
Cc1ccccc1CNC(=O)/C=C(\O)C(=O)O | strand transfer | 70 µM | 45%
COC(=O)/C(=C/c1cc(Br)ccc1OCc1ccccc1)CNCc1cn([C@H]2C[C@H](n3cc(C)c(=O)[nH]c3=O)O[C@@H]2CO)nn1 |  | 10 µM | 29.8%
O=C(NCCCC[C@H](NC(=O)c1ccc(O)c(O)c1)C(=O)O)c1ccc(O)c(O)c1 | 3′ processing | 10 µM | 0%

Again, the opening 3 rows:

smiles	read by	dose	value
COC(=O)/C(=C/c1cc(Cl)ccc1OCc1ccccc1)CNCc1cn([C@H]2C[C@H](n3cc(C)c(=O)[nH]c3=O)O[C@@H]2CO)nn1		10 µM	9%
O=C(/C=C(\O)C(=O)O)NCc1ccc([N+](=O)[O-])cc1	strand transfer	70 µM	80%
COC(=O)c1cc(O)c(O)c(O)c1	3′ processing	500 µM	62%